# Measurements reported in PubChem BioAssay AID624099 (ICCB-Longwood, 2012).
# Assay: 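Human genes that papillomavirus E2 requires to repress the HPV18 LCR promoter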 (primary screen)
# Cell system: human C33A cervical carcinoma cells (HPV-negative) stably expressing BPV1 E2 and an HPV18 LCR luciferase reporter
# Knock-down reagent: siRNA pool against human genes, 40 nM
# Timing: 72 h
# Measurement: 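Per-well luciferase luminescence, z-scored on each plate against the plate mean and SD with control wells left out, then averaged across three replicate plates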
# Reading the numbers: mean z-score and z-score: higher = stronger reporter signal, weaker E2 silencing
# Active means: 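Mean z ≥ 2 together with z ≥ 2 in two or more of the three replicates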
# In all, the deposit lists about 21,000 reagents; this is a part drawn at random. Of all reagents, 497 (2.4%) were called active. 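Higher z means weaker E2 silencing; only reporter increases were scored, and knock-downs that hurt cell survival may mask genuine repressor factors.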 The numbers tell different reagents against one gene apart. No sequences are given here.
gene knocked down,reagent no.,mean z-score,"z-score, replicate A","z-score, replicate B","z-score, replicate C",Call
ZNF207 (GeneID 7756),1,0.54,0.42,0.56,0.65,inactive
TGIF2LX (GeneID 90316),1,0.67,0.43,0.87,0.71,inactive
RBMY1F (GeneID 159163),1,-0.79,-0.69,-1.16,-0.52,inactive
CCNE2 (GeneID 9134),1,-0.11,-0.12,-0.01,-0.19,inactive
LOC389183 (retired record) (GeneID 389183),1,-1.37,-1.47,-1.85,-0.8,inactive
RNF8 (GeneID 9025),1,-1.13,-0.93,-1.18,-1.26,inactive
CSF2 (GeneID 1437),1,0.88,0.91,0.79,0.95,inactive
FLJ40288 (GeneID 286023),1,0.81,0.82,0.8,0.79,inactive
KIRREL3-AS3 (GeneID 283165),1,0.13,0.09,0.04,0.26,inactive
ZNF329 (GeneID 79673),1,0.31,0.96,0.28,-0.3,inactive
TUBBP1 (GeneID 92755),1,-2.21,-2.29,-2.05,-2.28,inactive
WT1 (GeneID 7490),1,-0.38,-0.43,-0.43,-0.28,inactive
TMEM94 (GeneID 9772),1,-0.32,-0.25,-0.06,-0.66,inactive
GPHA2 (GeneID 170589),1,-1.11,-0.78,-1.06,-1.49,inactive
IHH (GeneID 3549),1,0.12,0.1,0.14,0.14,inactive
LCE2B (GeneID 26239),1,-0.07,-0.14,-0.15,0.09,inactive
PSPHP1 (GeneID 8781),1,-0.53,-0.75,-0.42,-0.43,inactive
HLA-DRB4 (GeneID 3126),1,0.75,0.52,0.9,0.84,inactive
ZNF213 (GeneID 7760),1,-0.05,-0.09,-0.11,0.04,inactive
CFAP91 (GeneID 89876),1,1.2,1.23,1.03,1.35,inactive
MIB2 (GeneID 142678),1,-0.35,-0.2,-0.73,-0.12,inactive
HNRNPA1P20 (GeneID 344741),1,-0.13,-0.27,0.15,-0.26,inactive
LRRC7 (GeneID 57554),1,-1.24,-0.85,-1.16,-1.72,inactive
EPDR1 (GeneID 54749),1,1.19,1.17,1.32,1.08,inactive
SLC38A6 (GeneID 145389),1,0.75,0.78,0.66,0.82,inactive
CLEC2B (GeneID 9976),1,0.42,0.71,0.47,0.08,inactive
COPS7A (GeneID 50813),1,0.37,0.33,0.2,0.57,inactive
KLHL30 (GeneID 377007),1,-0.67,-0.33,-0.75,-0.93,inactive
TMEM127 (GeneID 55654),1,-0.99,-0.88,-0.89,-1.19,inactive
SPTBN4 (GeneID 57731),1,-0.37,-0.47,-0.35,-0.29,inactive
PRR22 (GeneID 163154),1,-0.72,-0.8,-0.92,-0.44,inactive
PRKACG (GeneID 5568),1,-0.76,-0.91,-0.25,-1.1,inactive

The list goes on, starting with the last 10 of the part before.
gene knocked down,reagent no.,mean z-score,"z-score, replicate A","z-score, replicate B","z-score, replicate C",Call
LRRC7 (GeneID 57554),1,-1.24,-0.85,-1.16,-1.72,inactive
EPDR1 (GeneID 54749),1,1.19,1.17,1.32,1.08,inactive
SLC38A6 (GeneID 145389),1,0.75,0.78,0.66,0.82,inactive
CLEC2B (GeneID 9976),1,0.42,0.71,0.47,0.08,inactive
COPS7A (GeneID 50813),1,0.37,0.33,0.2,0.57,inactive
KLHL30 (GeneID 377007),1,-0.67,-0.33,-0.75,-0.93,inactive
TMEM127 (GeneID 55654),1,-0.99,-0.88,-0.89,-1.19,inactive
SPTBN4 (GeneID 57731),1,-0.37,-0.47,-0.35,-0.29,inactive
PRR22 (GeneID 163154),1,-0.72,-0.8,-0.92,-0.44,inactive
PRKACG (GeneID 5568),1,-0.76,-0.91,-0.25,-1.1,inactive
FAM114A2 (GeneID 10827),1,-0.11,-0.05,-0.07,-0.21,inactive
PRPS1L1 (GeneID 221823),1,0.35,0.38,0.25,0.42,inactive
CFAP54 (GeneID 144535),1,-0.14,-0.31,0.07,-0.17,inactive
CFAP54 (GeneID 144535),2,-1.26,-0.93,-1.73,-1.13,inactive
REDIC1 (GeneID 283461),1,0.73,0.22,0.96,1.01,inactive
NRXN3 (GeneID 9369),1,-0.34,-0.15,-0.36,-0.52,inactive
TIGD2 (GeneID 166815),1,0.23,-0.21,0.48,0.42,inactive
SOSTDC1 (GeneID 25928),1,1.31,1.46,1.4,1.06,inactive
HNRNPA1P10 (GeneID 664709),1,2.09,2,2.33,1.92,active
CEBPZ (GeneID 10153),1,-0.73,-0.97,-0.55,-0.67,inactive
CRTAM (GeneID 56253),1,-1.06,-1.14,-1.05,-0.99,inactive
KRTAP1-3 (GeneID 81850),1,0.95,1.2,1.02,0.62,inactive
VWA3B (GeneID 200403),1,0.62,0.47,0.48,0.91,inactive
SOX7 (GeneID 83595),1,0.11,0.16,0.16,0.01,inactive
RNF133 (GeneID 168433),1,-0.6,-0.18,-0.85,-0.77,inactive
HBQ1 (GeneID 3049),1,-1.71,-1.77,-1.84,-1.53,inactive
SETP20 (GeneID 389217),1,-0.72,-0.5,-1.29,-0.37,inactive
AP3M1 (GeneID 26985),1,-0.57,-0.91,-0.26,-0.54,inactive
ACSS1 (GeneID 84532),1,1.15,1,1.34,1.11,inactive
LOC390625 (retired record) (GeneID 390625),1,-0.75,-0.51,-1.26,-0.49,inactive
H2BC4 (GeneID 8347),1,-0.99,-0.82,-0.99,-1.17,inactive
IFNA14 (GeneID 3448),1,-1.78,-1.79,-1.77,-1.79,inactive
NEDD1 (GeneID 121441),1,-0.37,-0.51,-0.16,-0.44,inactive
MAGOHB (GeneID 55110),1,-0.1,0.35,0.28,-0.93,inactive
LOC391807 (retired record) (GeneID 391807),1,-0.99,-1.26,-0.68,-1.02,inactive
RPL5P34 (GeneID 388907),1,-2.44,-2.41,-3.03,-1.89,inactive
FOXN2 (GeneID 3344),1,0.04,0.05,-0.2,0.27,inactive
TMX4 (GeneID 56255),1,-0.29,-0.54,-0.11,-0.23,inactive
WNT7A (GeneID 7476),1,-0.5,-0.26,-0.72,-0.52,inactive
LOC339351 (retired record) (GeneID 339351),1,0.5,0.5,0.05,0.96,inactive
SRSF9 (GeneID 8683),1,-2.05,-2.13,-2.05,-1.99,inactive
DIP2C (GeneID 22982),1,0.28,0.48,0.23,0.12,inactive
YWHAH (GeneID 7533),1,0.42,0.41,0.69,0.16,inactive
TMEM14A (GeneID 28978),1,-0.03,-0.4,0.05,0.26,inactive
IL17RE (GeneID 132014),1,-0.95,-0.68,-1.01,-1.18,inactive
LOC400547 (retired record) (GeneID 400547),1,0.45,0.77,0.1,0.48,inactive
RNASE2 (GeneID 6036),1,0.91,0.77,1.04,0.92,inactive
ODAD1 (GeneID 93233),1,-0.41,-0.06,-0.22,-0.94,inactive
ANKK1 (GeneID 255239),1,-0.6,-0.7,-0.79,-0.32,inactive
OTUB1 (GeneID 55611),1,0.26,0.24,0.26,0.27,inactive
GUCY1B1 (GeneID 2983),1,0.79,0.64,1.06,0.68,inactive
